Human monoclonal antibodies against the spike receptor-binding domain (heavy:light variable regions). IC50 against pseudoviruses bearing the spike of naturally observed variants; lower = stronger; >10 µg/ml means not reached at the top dose. No active / inactive call. The stated detection limit is 0.0005 µg/ml; values near or below 0.001 µg/ml lie at the floor of the assay.
B1: XG2v-126 (protein)
chain 1: QVQLVQSGAEVKKPGASVKVSCKASGYSFTGYYMNWVRQAPGQGLEWMGWINPNSGGTNYAQKFQGRVTMTRDASISTAYMELSRLRSDDTAVYYCASEGQLVRGGYMDVWGKGTTVTVSS
chain 2: QSVLTQPPSVSEAPRQRVTISCSGSSSNIGNNAVNWYQQLPGKAPKLLIYYDDLLPSGVSDRFSGSKSGTSASLAISGLQSEDEADYYCASWDDRLNGVVFGGGTKL
B2: XGv-040 (protein)
chain 1: EVQLVESGGGLIQPGGSLRLSCAASGFIVSNNYMSWVRQAPGKGLEWVSVIYSGGSTYYADSVKGRFTISRDNSKNTLYLQMNSLRAEDTAVYYCARDRGSSGYLGDQPYDYWGQGTLVTVSS
chain 2: DIQMTQSPSSLSASVGDRVTITCQASQDISNSLNWYQQKPGKAPKLLIYGVSNLETGVPLRFSGSGSGTDFTFTISSLQPEDVATYYCQQYNNLPVTFGGGTRVEI
B3: BD55-939 (protein)
chain 1: EVQLVESGGGLVQPGRSLRLSCAASGFTFEDYAMHWVRQAPGRGLEWVSGISWNGGTIGYADSVKGRFIISRDNAKNSLYLQTNSLRAEDTALYYCAKDMFLGDEAYCGGDCFAFDIWGQGTMVTVSS
chain 2: QSVLTQPPSVSGAPGQRVTISCTGSSSNIGPGYDVHWYQQLPGTAPKLLIYGNSNRPSGVPDRFSGSKSGTSASLAITGLQAEDEADYYCQSYDNSLSGLVVFGGGTKLTVL
B4: XG2v-032 (protein)
chain 1: QVTLRESGPALVKPTQTLTLTCTFSGFSLSTSGMCVSWIRQPPGKALEWLARIDWDDDKYYSTSLKTRLTISKDTSKNQVVLTMTNMDPVDTATYYCARILGYCSSSYYYGMDVWGQGTTVTVSS
chain 2: EIVLTQSPATLSLSPGERAILSCRASQSVSSYLAWYQQKPGQAPRLLIYGASNRATGIPARFSGSGSGTDFTLTISSLEPEDFAVYYCQHRSNWPPALTFGGGTQVEIK
B5: BD55-97 (protein)
chain 1: QVQLEESGPGLLRPSQTLSLTCAVSGASISSGGFYWTWIRQRPGKGLEWLGYISHTGGTYYSPSLKSRVIVSLVTSKNSFSLDVRSVTAADTAVYYCARLQAHCSASGCLPGDFGMDVWGRGTTVTVSS
chain 2: SYELIQAPSVSVSPGQTASITCSGDELGNKYVFWYHQRPGQSPLLVIYQDSKRPSGIPERFSGSNSGNTATLTISGPRALDEGDYYCQAWDTDTVVFGGGTKLTVL
B6: XGv-047 (protein)
chain 1: QVQLVQSGAEVKKPGSSVKVSCKTSGNTFSSYTITWVRQAPGQGLEWMGRIMPMLGIPNYAQKFQGRVKIIADKSTSTAYLELSSLTSEDTALYYCACGRLGESSLYLIDYWGQGTQVTVSS
chain 2: NFMLTQPHSVSESPGKTVTISCTRTSGSIASNYVQWYQRRPGSAPITLIYEDNQRPSGVPDRFSGSIDSSSNSASLSISGLKTEDEADYFCQSYDLSNWVFGGGTKLTVL
B7: XGv-032 (protein)
chain 1: EVQLVESGGGLVQPGGSLRLSCAASGFRFSIYDMHWVRQTTGKGLEWVSGFGTTGDTYYPDSVKGRFTISREDAKNSLYLQMNSLRPGDAAMYYCARVGRGFGEIGYDFWGQGTLVTVSS
chain 2: SYVLTQPPSVSVAPGKTARITCGGNNIGSKSVHWYQQKPGQAPVLVIYYNSDRPSGIPERFSGSNSGNTATLTISGVEAGDEADYYCQVWNSRSDHAVVFGGGTRLTV
B8: XGv-016 (protein)
chain 1: QVQLVQSGTEVRKPGASVTVSCKASGYTFTTYHMHWVRRAPGQGLEWMGIIDPGTGGASYPQKFRGRVTLTRDTSTNTVYMELSSLRFQDTAIYYCARAEGSSWLGWFDPWGQGTLVTVSS
chain 2: QSVLTQPPSASGTPGQRVSISCSGSSSNIGTNYVYWYQQLPGTAPKLLIYKNNQRPSGVPDRFSGSKSGTSASLAISGLRSEDEADYFCASWDNGLSGSGWVFGGGTKLTV
B9: XG2v-095 (protein)
chain 1: QVQLVQSGAEVKKPGSSVKVSCKASGGTFSSYAISWVRQAPGQGLEWMGGIIPIFGTAYYAQKFQGRVTITADESTSTAYMELSSLRSEDTAVYYCARQSRVNGYSYAYHFDYWGQGTLVTVSS
chain 2: QSALTQPASVSGSPGQSITISCTGTSSDVGSYNLVSWYQQHPGKAPKLLIFDVSKRPSGVSNRFSGSKSANTASLTISGLQAEDEADYYCCSYAGSSTWVFGGGTKL
B10: XGv-001 (protein)
chain 1: EVQLVESGGGLVKPGGSLRLSCAASGFTFNRYTLNWVRQAPGKGLEWVSSISSNSEYISYADSVKGRFTLSRDNAKNSMFLQMNSLRAEDTAVYYCARASPYDILTEGAFDYWGQGTLVTVSS
chain 2: EIVMTQSPATLSVSPGERVTLSCRASLSVSTNLAWYQQKPGQAPRLLIYGASTRATGLPARFSGSGSGTEFTLTITSLQSEDFAVYYCQQYHEWPTYTFGQGTKVEIK
B11: XGv-049 (protein)
chain 1: EVQLVESGGGLVQPGGSLRLSCAASGFTFSGFDMHWLRQDRGRGLEWVSTIGTSGDTYYSDSVKGRFTISRENAKNSLYLQMNTLRVGDTAVYYCARDSGTTVTILDSWGQGTLVTVSS
chain 2: DIQMTQSPSSLSASLGDRVTITCRASQSIGRFLNWFQQKPGKAPKLLISDSSSLQSGVPSRFSGSGSGTDFTLSISSLQPEDFATYYCQQSYSNPQITFGPGTKVDVK
B12: BD55-935 (protein)
chain 1: EVQLVESGGDLVQPGRSLRLSCAASGFTFDDYAMHWVRQAPGKGLQWVSGISWNSGIIGYADSVKGRFTISRDNAKNSLYLQMNTLRAEDTALYYCARDGGGGSGERWFAPWGQGTLVTVSS
chain 2: SYVLTQPPSVSVAPGKTASITCGGNTIGSKTVHWYQHKPGQAPVLVVYDDSDRPSGIPERFSGSNSGNTATLTISRVEAGDEADYYCQVWDSDSDHHVFGTGTKVTVL

molecular target: SARS-CoV-2 Omicron BA.1 spike pseudovirus; assay: pseudovirus neutralization IC50; higher = weaker neutralization
Description: (§1)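 Single-round VSV luciferase pseudovirus mixed with antibody dilutions for 1 h and put on Huh-7 cells for about a day; IC50 from the dose curve.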

Point of comparison: B6, “pseudovirus neutralization IC50” value 0.335 µg/mL. Against it:
- B1 — 1.9-fold higher, 0.649 µg/mL
- B2 — higher, > 10 µg/mL
- B3 — 2.5-fold higher, 0.843 µg/mL
- B4 — 13-fold lower, 0.0257 µg/mL
- B5 — higher, > 10 µg/mL
- B7 — higher, > 10 µg/mL
- B8 — 6.6-fold lower, 0.0511 µg/mL
- B9 — 1.8-fold higher, 0.604 µg/mL
- B10 — higher, > 10 µg/mL
- B11 — higher, > 10 µg/mL
- B12 — higher, > 10 µg/mL

molecular target: SARS-CoV-2 Omicron BA.2 spike pseudovirus; assay: as above
Description: as §1

Point of comparison: B4, “pseudovirus neutralization IC50” value 0.0281 µg/mL. Against it:
- B1 — 20-fold higher, 0.569 µg/mL
- B2 — higher, > 10 µg/mL
- B3 — 42-fold higher, 1.17 µg/mL
- B5 — higher, > 10 µg/mL
- B6 — within 1.5-fold, 0.0224 µg/mL
- B7 — higher, > 10 µg/mL
- B8 — 2.1-fold higher, 0.0604 µg/mL
- B9 — 11-fold higher, 0.319 µg/mL
- B10 — higher, > 10 µg/mL
- B11 — higher, > 10 µg/mL
- B12 — higher, > 10 µg/mL

molecular target: SARS-CoV-2 Omicron BA.2.75 spike pseudovirus; assay: as above
Description: as §1

Point of comparison: B9, “pseudovirus neutralization IC50” value 2.94 µg/mL. Against it:
- B1 — 13-fold lower, 0.234 µg/mL
- B2 — higher, > 10 µg/mL
- B3 — 2-fold lower, 1.5 µg/mL
- B4 — 72-fold lower, 0.0407 µg/mL
- B5 — higher, > 10 µg/mL
- B6 — 12-fold lower, 0.242 µg/mL
- B7 — higher, > 10 µg/mL
- B8 — 48-fold lower, 0.0615 µg/mL
- B10 — higher, > 10 µg/mL
- B11 — higher, > 10 µg/mL
- B12 — higher, > 10 µg/mL

molecular target: SARS-CoV-2 Omicron BA.5 spike pseudovirus; assay: as above
Description: as §1

Point of comparison: B1, “pseudovirus neutralization IC50” value 4.53 µg/mL. Against it:
- B2 — higher, > 10 µg/mL
- B3 — higher, > 10 µg/mL
- B4 — 63-fold lower, 0.0716 µg/mL
- B5 — higher, > 10 µg/mL
- B6 — 15-fold lower, 0.312 µg/mL
- B7 — higher, > 10 µg/mL
- B8 — 73-fold lower, 0.0622 µg/mL
- B9 — higher, > 10 µg/mL
- B10 — higher, > 10 µg/mL
- B11 — higher, > 10 µg/mL
- B12 — higher, > 10 µg/mL

molecular target: SARS-CoV-2 Omicron BQ.1.1 spike pseudovirus; assay: as above
Description: as §1

Point of comparison: B1, “pseudovirus neutralization IC50” value 2.51 µg/mL. Against it:
- B2 — higher, > 10 µg/mL
- B3 — higher, > 10 µg/mL
- B4 — higher, > 10 µg/mL
- B5 — higher, > 10 µg/mL
- B6 — higher, > 10 µg/mL
- B7 — higher, > 10 µg/mL
- B8 — 8.1-fold lower, 0.309 µg/mL
- B9 — higher, > 10 µg/mL
- B10 — higher, > 10 µg/mL
- B11 — higher, > 10 µg/mL
- B12 — higher, > 10 µg/mL

molecular target: SARS-CoV-2 Omicron XBB spike pseudovirus; assay: as above
Description: as §1

B1 and B2 cannot be ordered by “pseudovirus neutralization IC50” value: over 10 µg/mL for the first, over 10 µg/mL for the second.

B3 and B4 cannot be ordered by “pseudovirus neutralization IC50” value: over 10 µg/mL for the first, over 10 µg/mL for the second.

B5 and B6 cannot be ordered by “pseudovirus neutralization IC50” value: over 10 µg/mL for the first, over 10 µg/mL for the second.

B7 and B8 cannot be ordered by “pseudovirus neutralization IC50” value: over 10 µg/mL for the first, over 10 µg/mL for the second.

B9 and B10 cannot be ordered by “pseudovirus neutralization IC50” value: over 10 µg/mL for the first, over 10 µg/mL for the second.

B11 and B12 cannot be ordered by “pseudovirus neutralization IC50” value: over 10 µg/mL for the first, over 10 µg/mL for the second.

molecular target: SARS-CoV-2 early D614G spike pseudovirus; assay: as above
Description: as §1

Point of comparison: B2, “pseudovirus neutralization IC50” value 0.223 µg/mL. Against it:
- B1 — 64-fold lower, 0.0035 µg/mL
- B3 — within 1.5-fold, 0.259 µg/mL
- B4 — 14-fold higher, 3.18 µg/mL
- B5 — higher, > 10 µg/mL
- B6 — within 1.5-fold, 0.168 µg/mL
- B7 — higher, > 10 µg/mL
- B8 — 85-fold lower, 0.00262 µg/mL
- B9 — 2.5-fold higher, 0.55 µg/mL
- B10 — 28-fold higher, 6.24 µg/mL
- B11 — 33-fold higher, 7.34 µg/mL
- B12 — higher, > 10 µg/mL
